# Laboratory results from ChEMBL document CHEMBL4316619 (Bioorg Med Chem Lett, 2019).
# Tested on: unidentified influenza virus
# Test: Inhibition of influenza virus NS1 expressed in yeast 9526-6-2 harboring pYES assessed as restoration of yeast growth at 50 uM measured up to 60 hrs
row,SMILES,inhibition
1,COc1cc(-c2c(C#N)c(N)nc3c2c(C)nn3-c2ccc(F)cc2)ccc1O,Active
2,COc1cc(-c2ccnc3c2c(C)nn3-c2cccc(C(F)(F)F)c2)ccc1O,Active
3,Cc1ccc(-n2nc(C)c3c(-c4ccc(O)c(O)c4)c(C#N)c(N)nc32)cc1C,Active
4,COc1cc(-c2ccnc3c2c(C)nn3-c2ccc(C(F)(F)F)cc2)ccc1O,Active
5,Cc1nn(-c2ccc(Cl)cc2)c2nc(N)c(C#N)c(-c3ccc(O)c(O)c3)c12,Active

# Calls of active or inactive are those of the source. The calls are words filed in the database; no cut-off is given here.
